Earlier results on four compounds are cited in article PMC4594927 (PLoS ONE, 2015).

Sequences of proteins named here, by UniProt entry; tags and fusion partners are left off. Residues count along the entry.
UniProt A0A6L8P2U9, 1-487: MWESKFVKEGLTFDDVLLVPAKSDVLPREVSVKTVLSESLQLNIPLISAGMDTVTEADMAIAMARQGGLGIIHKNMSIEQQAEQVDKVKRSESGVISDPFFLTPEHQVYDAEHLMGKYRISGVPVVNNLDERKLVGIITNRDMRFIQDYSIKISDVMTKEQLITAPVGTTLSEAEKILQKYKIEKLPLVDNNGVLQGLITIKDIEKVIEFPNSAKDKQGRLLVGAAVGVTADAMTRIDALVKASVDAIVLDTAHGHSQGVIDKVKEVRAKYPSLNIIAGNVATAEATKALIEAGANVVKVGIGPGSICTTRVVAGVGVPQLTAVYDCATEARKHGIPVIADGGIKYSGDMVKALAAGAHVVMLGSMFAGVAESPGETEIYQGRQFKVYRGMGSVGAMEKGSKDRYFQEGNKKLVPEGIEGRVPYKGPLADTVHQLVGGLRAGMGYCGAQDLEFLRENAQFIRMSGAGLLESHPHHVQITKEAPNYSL

Molecules are shown by their SMILES.

The target in this series is BaIMPDH (Bacillus anthracis, UniProt A0A6L8P2U9). To be noted: read-out: Ki,app BaIMPDH; cited from earlier work.
On to `CC(=O)c1cccc(C(C)(C)NC(=O)Nc2ccc(Cl)cc2)c1` [P20], for which the Ki is 160 ± 60 nM.

For the compound `CC(=NO)c1cccc(C(C)(C)NC(=O)Nc2ccc(Cl)c(Cl)c2)c1` [P47], the Ki was 95 ± 30 nM.

For the compound `CON=C(C)c1cccc(C(C)(C)NC(=O)Nc2ccc(Cl)c(C#N)c2)c1` [P69], the Ki was 15 ± 1 nM.

Take `CON=C(C)c1cccc(C(C)(C)NC(=O)Nc2ccc(Cl)c(C(F)(F)F)c2)c1` [P83]: the Ki is 15 ± 2 nM.
